The values below are quoted from earlier work in paper PMC10856564, “Metabolites from Streptomyces aureus (VTCC43181) and Their Inhibition of Mycobacterium tuberculosis ClpC1 Protein” (Molecules, 2024).

The subject of this data set is ClpC1. As to conditions: cited from earlier work.

As to rufomycin, the “inhibition of ClpC1 through ATP hydrolysis function” value is on record as “reported to inhibit ClpC1 through the effection of ATP hydrolysis function”.

As to ecumicin, the “inhibition of ClpC1 through ATP hydrolysis function” value was “reported to inhibit ClpC1 through the effection of ATP hydrolysis function”.
